Drawing on patent US6362166B1, “Antipicornaviral compounds and methods for their use and preparation” (Agouron Pharmaceuticals, Inc., priority 1996, dated 2002), this text covers TI for 34 compounds.

Structures are written as SMILES. Where only a bound is given, the exact number is not on record here.

The subject of this data set is HRV-14. The experiment in a line: Antirhinoviral HI-HeLa Cell Culture Assay (Cell Protection Assay, XTT dye reduction). It counts as cell-based, human rhinovirus (HRV) serotype-14. As to conditions: therapeutic index = CC50 divided by EC50; HRV-14, HI-HeLa. Here is the method:
In the Cell Protection Assay, the ability of compounds to protect cells against HRV infection was measured by the XTT dye reduction method. This method is described in Weislow, O. S., R. Kiser, D. L. Fine, J. Bader, R. H. Shoemaker, and M. R. Boyd, J. Natl. Cancer Inst. 1989, 81, 577-586, which is incorporated herein by reference.
HI-HeLa cells were infected with HRV-14 at a multiplicity of infection (m.o.i.) of 0.13 (virus particles/cell) or mock-infected with medium only. Infected or mock-infected cells were resuspended at 8×10^5 cells per mL and incubated with appropriate concentration of compounds of formulas I and II. Two days later, XTT/PMS was added to test plates and the amount of formazan produced was quantified spectrophotometrically at 450/650 nm. […] The therapeutic index (TI) was calculated by dividing the CC50 by the EC50.
All strains of human rhinovirus (HRV) for use in this assay were purchased from American Type Culture Collection (ATCC), except for HRV serotype-14, which was produced from the infectious cDNA clone, constructed and supplied to us by Dr. Roland Rueckert at the Institue for Molecular Virology, University of Wisconsin, Madison, Wisc. HRV stocks were propagated, and antiviral assays were perforemd in HI-HeLa cells (ATCC). Cells were grwon in Minimal Essential Medium, available from Life Technologies, with 10% fetal bovine serum.
The compounds were tested against control compounds WIN 51711, WIN 52084, and WIN 54954, all obtained from Sterling-Winthrop Pharmaceuticals, and control compound Pirodavir, obtained from Janssen Pharmaceuticals.
In general terms: Formazan colour is commonly taken as a measure of viable cells.
Compound `CCOC(=O)/C=C/[C@H](CCC(N)=O)NC(=O)[C@H](Cc1ccccc1)NS(=O)(=O)c1ccccc1` [Compound 34, Ethyl-3-[N-(Phenylsulfonyl)-L-Phe-L-Gln]-E-Propenoate] displayed a TI greater than 1.

`CC(C)C[C@H](NC(=O)OCc1ccccc1)C(=O)N[C@@H](Cc1ccccc1)C(=O)N[C@H](/C=C/S(=O)(=O)c1ccccc1)CCC(N)=O` [Compound 10, Phenyl-[2-(CBZ-L-Leu-L-Phe-L-Gln)-E-Vinyl]Sulfone] yielded a TI greater than 2.

In the case of `CCOC(=O)/C=C/[C@H](CCC(N)=O)NC(=O)[C@H](Cc1ccccc1)NC(=O)OCc1ccccc1` [Compound 30, Ethyl-3-(CBZ-L-Phe-L-Gln)-E-Propenoate], the TI is on record as 18.

In turn, `CCOC(=O)/C=C/[C@H](CCC(N)=O)NC(=O)[C@H](Cc1ccc(OP(=O)(O)O)cc1)NC(=O)[C@H](CC(C)C)NC(=O)OCc1ccccc1` [Compound 105] showed a TI greater than 23.

Compound `CCOC(=O)/C=C/[C@H](CNC(C)=O)NC(=O)[C@H](Cc1ccccc1)NC(=O)[C@H](CC(C)C)NC(=O)OCc1ccccc1` [Compound 4, Ethyl-3-[CBZ-L-Leu-L-Phe-L-(N-Ac-amino)-Ala]-E-Propenoate] registered a TI greater than 146.

`CCOC(=O)/C=C/[C@H](CCC(N)=O)NC(=O)[C@H](Cc1ccccc1)NC(=O)[C@H](CSc1ccccc1)NC(=O)OCc1ccccc1` [Compound 153] returned a TI greater than 2667.

The compound `CCOC(=O)/C=C/[C@H](CCC(N)=O)NC(=O)[C@H](Cc1ccccc1)NC(=O)[C@H](CCc1ccccc1)NC(=O)SCc1ccccc1` [Compound 162] returned a TI greater than 312.

`CC(C)CC(NC(=O)OCc1ccccc1)C(=O)NC(Cc1ccccc1)C(=O)NC(C=C1CCCOC1=O)CCC(N)=O` (stereo not shown) [Compound 130]: the TI is listed as greater than 6.

`CC(C)C[C@H](NC(=O)OCc1ccccc1)C(=O)N[C@@H](Cc1ccccc1)C(=O)N[C@H](/C=C/C=O)CCC(N)=O` [Compound 81] came in with a TI of 14.

On to `CCOC(=O)/C=C/[C@H](CCC(N)=O)NC(=O)[C@H](Cc1ccccc1)NC(=O)[C@H](CO)NC(=O)OCc1ccccc1` [Compound 149], for which the TI is greater than 180.

For the compound `CCOC(=O)/C=C/[C@H](CC[S+](C)[O-])NC(=O)[C@H](Cc1ccccc1)NC(=O)[C@H](CC(C)C)NC(=O)OCc1ccccc1` (stereo partly drawn) [Compound 12, Ethyl-3-[CBZ-L-Leu-L-Phe-L-Met(sulfoxide)]-E-propenoate], the TI is recorded as greater than 63.

Regarding `CCOC(=O)/C=C/[C@H](CCC(N)=O)NC(=O)[C@H](CSCC)NC(=O)[C@H](CC(C)C)NC(=O)OCc1ccccc1` [Compound 143], the TI was greater than 32.

As for `CC(C)C[C@H](NC(=O)OCc1ccccc1)C(=O)N[C@@H](Cc1ccccc1)C(=O)N[C@H](/C=C/C(=O)C(C)(C)C)CCC(N)=O` [Compound 52], the TI is listed as 3.

On to `CCOC(=O)/C=C/C(CCC(N)=O)NC(=O)C(Cc1ccccc1)NC(=O)C(CC(C)C)NC(=O)c1ccc2ccccc2c1` (stereo not shown) [Compound 44], for which the TI was greater than 320.

Compound `CCOC(=O)/C=C/[C@H](CCC(N)=O)NC(=O)[C@H](Cc1ccccc1)NC(=O)[C@H](CC(C)C)NC(=O)SC(C)C` [Compound 170] yielded a TI greater than 500.

Turning to `CCOC(=O)/C=C/[C@H](CCC(N)=O)NC(=O)[C@H](Cc1ccccc1)NC(=O)[C@H](CC(C)C)NC(=O)SCc1ccccc1` [Compound 106], the TI was greater than 1185.

`CCOC(=O)/C=C/[C@H](CCC(N)=O)NC(=O)[C@H](CC1CCCCC1)NC(=O)[C@H](CC(C)C)NC(=O)OCc1ccccc1` [Compound 135] gave a TI greater than 168.

`CCOC(=O)/C(C)=C/[C@H](CCC(N)=O)NC(=O)[C@H](Cc1ccc(C)cc1)NC(=O)[C@@H](NC(=O)SC1CCCC1)C(C)(C)C` [Compound 175, Ethyl-2-Methyl-3-[Cyclopentylthiocarbonyl-L-α-(t-Butyl-Gly)-L-(4-Me-Phe)-L-Gln]-E-Propenoate] registered a TI greater than 555.

For the compound `CCOC(=O)/C=C/[C@H](CCC(N)=O)NC(=O)[C@H](Cc1ccccc1)NC(=O)[C@H](CC(C)C)NC(=O)CO` [Compound 111], the TI is greater than 11.

On to `CCOC(=O)/C=C/[C@H](CCC(=O)NC(c1ccccc1)(c1ccccc1)c1ccccc1)NC(=O)[C@H](Cc1ccccc1)NC(=O)[C@H](CC(C)C)NC(=O)OCc1ccccc1` [Compound 2, Ethyl-3-[CBZ-L-Leu-L-Phe-L-(Tr-Gln)]-E-Propenoate], for which the TI is on record as greater than 3.2.

For the compound `CCOC(=O)/C=C/[C@H](CCC(N)=O)NC(=O)[C@H](Cc1ccc(OC)cc1)NC(=O)[C@H](CC(C)C)NC(=O)OCc1ccccc1` [Compound 103], the TI is greater than 188.

Consider `CCOC(=O)/C=C/[C@H](CCC(N)=O)NC(=O)[C@H](Cc1ccccc1)NS(=O)(=O)Cc1ccccc1` [Compound 32, Ethyl-3-[N-(Benzylsulfonyl)-L-Phe-L-Gln]-E-Propenoate], for which the TI is recorded as greater than 10.

In turn, `CC(C)C[C@H](NC(=O)OCc1ccccc1)C(=O)N[C@@H](Cc1ccccc1)C(=O)N[C@H](/C=C/CSc1ccccn1)CCC(N)=O` [Compound 75] yielded a TI greater than 20.

Regarding `CON=C/C=C/[C@H](CCC(N)=O)NC(=O)[C@H](Cc1ccccc1)NC(=O)[C@H](CC(C)C)NC(=O)OCc1ccccc1` [Compound 83], the TI is recorded as greater than 3.

Take `CCOC(=O)/C=C/[C@H](CCC(N)=O)NC(=O)[C@H](Cc1ccccc1)NC(=O)[C@H](CC(C)C)NC(=O)CCO` [Compound 115]: the TI is greater than 17.

Regarding `CCOC(=O)/C=C/[C@H](CCC(N)=O)NC(=O)[C@H](Cc1ccccc1)NC(=O)[C@@H](NC(=O)SCC)C(C)C` [Compound 180], the TI is on record as greater than 1785.

Regarding `CC(C)C[C@H](NC(=O)OCc1ccccc1)C(=O)N[C@@H](Cc1ccccc1)C(=O)N[C@H](/C=C/C(=O)N(C)c1ccccc1)CCC(N)=O` [Compound 60], the TI is recorded as greater than 2.

For `CC(C)C[C@H](NC(=O)OCc1ccccc1)C(=O)N[C@@H](Cc1ccccc1)C(=O)N[C@H](/C=C\CCl)CCC(N)=O` [Compound 78], the TI is given as 8.

The compound `CCOC(=O)/C=C/[C@H](CCC(N)=O)NC(=O)[C@H](Cc1ccccc1)NC(=O)[C@H](CC(=O)N(C)C)NC(=O)OCc1ccccc1` [Compound 158] registered a TI greater than 54.

As for `CCOC(=O)/C=C/[C@H](CCC(N)=O)NC(=O)[C@H](CC)NC(=O)[C@H](CC(C)C)NC(=O)OCc1ccccc1` [Compound 108], the TI is listed as greater than 53.

As to `CC(C)C[C@H](NC(=O)OCc1ccccc1)C(=O)N[C@@H](Cc1ccccc1)C(=O)N[C@H](/C=C/C(=O)c1ccco1)CCC(N)=O` [Compound 49], the TI is given as 8.

The compound `CCOC(=O)/C(C)=C/[C@H](CCC(N)=O)NC(=O)[C@H](Cc1ccc(F)cc1)NC(=O)[C@@H](NC(=O)SC1CCCC1)C(C)(C)C` [Compound 177, Ethyl-2-Methyl-3-[Cyclopentylthiocarbonyl-L-α-(t-Butyl-Gly)-L-(4-F-Phe)-L-Gln]-E-Propenoate] came in with a TI greater than 200.

In turn, `CCOC(=O)/C=C/[C@H](CCC(N)=O)NC(=O)[C@H](Cc1ccccc1)NS(=O)(=O)CC` [Compound 33, Ethyl-3-[N-(Ethylsulfonyl)-L-Phe-L-Gln]-E-Propenoate] displayed a TI greater than 1.

`CC(C)C[C@H](NC(=O)OCc1ccccc1)C(=O)N[C@@H](Cc1ccccc1)C(=O)N[C@H](/C=C/C(=O)OCC1CCCC1)CCC(N)=O` [Compound 19, Cyclopentylmethyl-3-(CBZ-L-Leu-L-Phe-L-Gln)-E-Propenoate] had a TI greater than 74.
